Anti-infective test results gathered from many reports (values: NIAID ChemDB through PubChem).

All rows: whole-cell or culture tests; organism: Mycobacterium tuberculosis

A number after MIC or MFC names an inhibition level or a share of isolates. Percent inhibition refers to the dose given; in toxicity tests it is the harm to the cells. MIC bound: limit read from a one-dose screen. ECn: concentration that inhibits the pathogen or its effect by n%. a–b is a range or a potency band. Conditions beyond the fields shown may differ between rows.

O=C(Oc1cc(Cl)ccc1C(=O)Nc1ccc(Cl)c(Cl)c1)c1ccccc1 ; method: broth dilution ; measure: MIC100 ; strain: H37Rv ; setting: 14 d ; result: 1 µM
COc1ccc2ccc3c4c(c(=O)[nH]c3c2n1)CCC4 ; method: BACTEC ; measure: MIC bound ; strain: H37Rv ; result: >12.5 µg/mL
CC[C@@H](CO)NCCN[C@@H](CC)CO ; changes: MDR ; method: broth dilution ; measure: MIC99 ; strain: 8666/2010 ; result: 8 µM
Cc1c(CN(C)c2cccc3c2CCCC3)cnc2nc(N)nc(N)c12 ; measure: MIC ; strain: H37Rv ; result: >12.5 µg/mL
NNC(=O)c1ccncc1 ; measure: MIC ; strain: H37Rv ; result: <0.02 µg/mL
N#C/C(=C\c1ccc(Br)cc1)n1nc2ccccc2n1 ; measure: inhibition ; tested at: 12.5 µg/mL ; result: 6%
COc1ccc(N2CN(c3ccc(OC)cc3)CN(c3ccc(OC)cc3)C2)cc1 ; method: colony count / visual reading ; measure: MIC ; strain: H37Rv ; result: 250 µg/mL
N#C/C(=C\c1ccccc1)n1nnc2ccccc21 ; measure: MIC ; result: 6.25 µg/mL
O=C(c1ccccc1Br)N1CCC2(CC1)OCCc1sccc12 ; measure: EC50 ; strain: H37Rv ; result: >100 µM
COc1ccc(C(=O)Nc2ccc(C(=O)N/N=C/c3ccc([N+](=O)[O-])o3)cc2)cc1 ; measure: MIC ; strain: H37Rv ; result: >6.25 µg/mL
FC(F)(F)c1ccccc1N1CN(c2ccccc2C(F)(F)F)CN(c2ccccc2C(F)(F)F)C1 ; method: colony count / visual reading ; measure: MIC ; strain: H37Rv ; result: 100 µg/mL
COc1cc(NCc2cnc3nc(N)nc(N)c3c2C)cc(OC)c1OC ; measure: MIC ; strain: H37Rv ; result: >12.5 µg/mL
O=C(c1ccccc1)c1oc2ccc(Br)cc2c1-c1cnn(-c2ccccc2)c1 ; method: BACTEC ; measure: MIC bound ; strain: H37Rv ; result: >12.5 µg/mL
CC(C)N=c1cc2n(-c3ccc(Cl)cc3)c3ccccc3nc-2cc1Nc1ccc(Cl)cc1 ; changes: MDR ; method: broth dilution ; measure: MIC99 ; strain: 9449/2007 ; result: 2 µM
CSC(=S)N/N=C(/c1ccccc1)c1ccccn1 ; method: BACTEC ; measure: MIC ; strain: H37Rv ; result: 128 µg/mL
CCOc1cc(/C=N/NC(=O)c2ccc(NC(=O)c3ccc(OC)cc3)cc2)ccc1O ; measure: inhibition ; tested at: 6.25 µg/mL ; strain: H37Rv ; result: 0%
Cn1ncc2c(N(N)CCO)nc(-c3ccc([N+](=O)[O-])o3)nc21 ; method: BACTEC ; measure: MIC ; strain: H37Rv ; result: ≥12.5 µg/mL
CN[C@@H]1[C@H](O[C@H]2[C@H](O[C@H]3[C@H](O)[C@@H](O)[C@H](N=C(N)N)[C@@H](O)[C@@H]3N=C(N)N)O[C@@H](C)[C@]2(O)C=O)O[C@@H](CO)[C@H](O)[C@H]1O ; changes: MDR ; method: broth dilution ; measure: MIC99 ; strain: 9449/2007 ; result: >32 µM
N#C/C(=C\c1ccc(N)cc1)n1nc2ccccc2n1 ; measure: EC50 ; result: >12.5 µg/mL
O=c1c(Cc2ccccc2)c(O)c(-c2ccccc2)c2n1CCC2 ; measure: MIC ; strain: H37Ra ; result: 128 µg/mL
CN[C@@H]1[C@@H](O)[C@@H](O[C@@H]2[C@@H](O)[C@H](O[C@H]3O[C@H](CN)CC[C@H]3N)[C@@H](N)C[C@H]2N)OC[C@]1(C)O ; changes: MDR ; method: broth dilution ; measure: MIC99 ; strain: 9449/2007 ; result: 2 µM
Fc1ccc(N2CN(c3ccc(F)cc3Br)CN(c3ccc(F)cc3Br)C2)c(Br)c1 ; method: colony count / visual reading ; measure: MIC ; strain: H37Rv ; result: 50 µg/mL
O=[N+]([O-])c1nccn1CCCNc1ccnc2cc(Cl)ccc12 ; measure: MBC ; strain: H37Rv ; result: 3.1–18.4 µg/mL
CN(C)CCOc1ccc2c(c1)C(=O)/C(=C/c1ncc([N+](=O)[O-])n1C)C2 ; method: resazurin ; measure: inhibition ; tested at: 6.25 µg/mL ; strain: H37Rv ; result: 19%
O=C(Oc1ccc(Cl)cc1C(=O)Nc1ccc(Cl)c(Cl)c1)c1cnccn1 ; method: broth dilution ; measure: MIC100 ; strain: H37Rv ; setting: 14 d ; result: 2 µM
CCOC(=O)c1c(O)c(-c2ccccc2)c(=O)n2c1CCC2 ; measure: MIC ; strain: H37Ra ; result: 256 µg/mL
Cc1c2ccncc2c(C)c2c1[nH]c1ccc(Br)cc12 ; method: resazurin ; measure: MIC bound ; strain: H37Rv ; result: <6.25 µg/mL
Cc1c(CNc2cccc3c2CCCC3)cnc2nc(N)nc(N)c12 ; measure: MIC ; strain: H37Rv ; result: 12.5 µg/mL
COc1ccc2c(c1)[n+]([O-])c(/C(C)=N/NC(N)=S)c(C)[n+]2[O-] ; method: BACTEC ; measure: MIC ; strain: H37Rv ; result: ≥12.5 µg/mL
O=C(OCCCl)N1CCC2(CC1)OCCc1sccc12 ; measure: EC50 ; strain: H37Rv ; result: >100 µM
O=C(O)c1cccc(-n2ncc(Cl)c(Cl)c2=O)c1 ; method: BACTEC ; measure: inhibition ; tested at: 6.25 µg/mL ; strain: H37Rv ; result: 0%
c1cc2c(s1)CCOC21CCN(Cc2ccc3c(c2)OCCO3)CC1 ; measure: EC50 ; strain: H37Rv ; result: 1.25 µM
Cc1cc2c(=O)c3ccccc3oc2c(C#N)c1C ; method: BACTEC ; measure: inhibition ; tested at: 12.5 µg/mL ; strain: H37Rv ; result: -10%
Clc1ccc(N2CN(c3ccc(Cl)cc3)CN(c3ccc(Cl)cc3)C2)cc1 ; method: colony count / visual reading ; measure: MIC ; strain: H37Rv ; result: 100 µg/mL
CO[C@H]1/C=C/O[C@@]2(C)Oc3c(C)c(O)c4c(O)c(c(/C=N/N5CCN(C)CC5)c(O)c4c3C2=O)NC(=O)/C(C)=C\C=C\[C@H](C)[C@H](O)[C@@H](C)[C@@H](O)[C@@H](C)[C@H](OC(C)=O)[C@@H]1C ; changes: MDR ; method: broth dilution ; measure: MIC99 ; strain: Praha 4 ; result: >8 µM
Cc1cc(CN2CCC3(CC2)OCCc2sccc23)c(C)n1-c1ccc(F)cc1 ; measure: EC50 ; strain: H37Rv ; result: 1.25 µM
N#C/C(=C\c1ccc(F)cc1)n1nnc2ccccc21 ; measure: inhibition ; tested at: 12.5 µg/mL ; result: 5%
COc1ccc(Nc2nnc(-c3ccc(NC(=O)c4ccc(OC)cc4)cc3)o2)cc1 ; measure: MIC ; strain: H37Rv ; result: >6.25 µg/mL
CCOC(=O)c1c(O)c(C)c(=O)n2c1CCC2 ; measure: MIC ; strain: H37Ra ; result: >256 µg/mL
NC(=O)c1cnccn1 ; measure: MIC ; strain: 21 strains (PZA-susceptible) ; result: 12.5–200 µg/mL
COC(=O)N[C@@H]1[C@H](C)O[C@@H](OC2C/C=C(\C)[C@H]3C=C[C@H]4[C@H](OC5C[C@@H](OC6C[C@@H](O)[C@@H](OC7C[C@@H](O)[C@@H](OC)[C@H](C)O7)[C@H](C)O6)[C@@H](O)[C@H](C)O5)[C@H](C)C[C@@H](C)[C@@H]4[C@@]3(C)/C(O)=C3/C(=O)OC4(C[C@H](C)C(C=O)=C[C@H]4/C=C\2C)C3=O)C[C@@]1(C)[N+](=O)[O-] ; method: MTT ; measure: MIC90 ; strain: H37Ra ; result: 2.6 µM
COc1ccc(C)c(NCc2cnc3nc(N)nc(N)c3c2C)c1 ; measure: MIC ; strain: H37Rv ; result: 6.25 µg/mL
C=C1CC/C=C(\C)CC[C@@H]2[C@@H]1CC2(C)C ; method: BACTEC ; measure: MIC bound ; strain: H37Rv ; result: ≤128 µg/mL
O=[N+]([O-])c1cn2c(n1)OC[C@@H](OC/C=C/c1ccc(-c3ccc(C(F)(F)F)nc3)cc1)C2 ; method: resazurin ; measure: MIC ; strain: H37Rv ; result: 2 µM
COc1ccc(C(=O)Nc2ccc(C(=O)NN3C(=O)CSC3c3ccc(Cl)cc3)cc2)cc1 ; measure: MIC ; strain: H37Rv ; result: >6.25 µg/mL
O=C(c1ccccc1)N1CCC2(CC1)OCCc1sccc12 ; measure: EC50 ; strain: H37Rv ; result: >100 µM
NCC[C@H](O)C(=O)N[C@@H]1C[C@H](N)[C@@H](O[C@H]2O[C@H](CN)[C@@H](O)[C@H](O)[C@H]2O)[C@H](O)[C@H]1O[C@H]1O[C@H](CO)[C@@H](O)[C@H](N)[C@H]1O ; changes: MDR ; method: broth dilution ; measure: MIC99 ; strain: Praha 4 ; result: 1 µM
Nc1nnc2nc(C(C(=O)/C=C/c3cccc(O)c3)c3nc4nnc(N)n4[nH]c3=O)c(=O)[nH]n12 ; method: BACTEC ; measure: MIC bound ; strain: H37Rv ; result: >12.5 µg/mL
Fc1ccc(C(F)(F)F)cc1N1CN(c2cc(C(F)(F)F)ccc2F)CN(c2cc(C(F)(F)F)ccc2F)C1 ; method: colony count / visual reading ; measure: MIC ; strain: H37Rv ; result: 50 µg/mL
O=c1c(-c2ccccc2)c(O)c(-c2ccc(Cl)cc2)c2n1CCC2 ; measure: MIC ; strain: H37Ra ; result: 128 µg/mL
NC(=O)N(CCO)/N=C/c1ccc([N+](=O)[O-])o1 ; method: resazurin ; measure: MIC bound ; strain: H37Rv ; result: >6.25 µg/mL
COc1ncnc(Cn2cnc3c(C(=O)NCC(F)(F)F)cccc32)c1C ; method: visual reading / absorbance ; measure: MIC80 ; strain: H37Rv ; result: <1.32 µM
COC(=O)N1CCC2CCC=C(c3cccc4c3OCO4)C21 ; method: resazurin ; measure: MIC bound ; strain: H37Rv ; result: >6.25 µg/mL
O=C(O)c1c(O)c(Cc2ccccc2)c(=O)n2c1CCC2 ; measure: MIC ; strain: H37Ra ; result: >256 µg/mL
Fc1ccccc1N1CN(c2ccccc2F)CN(c2ccccc2F)C1 ; method: colony count / visual reading ; measure: MIC ; strain: H37Rv ; result: 100 µg/mL
COc1cccc2c(=O)c(COC(C)=O)c(C)[nH]c12 ; method: BACTEC ; measure: inhibition ; tested at: 12.5 µg/mL ; strain: H37Rv ; result: 0%
O=C(Oc1cc(Cl)ccc1C(=O)Nc1cccc(Br)c1)c1cnccn1 ; method: broth dilution ; measure: MIC100 ; strain: H37Rv ; setting: 14 d ; result: 1 µM
Cc1c(CNc2ccc(Cl)c(C(=O)NC(CC(=O)O)C(=O)O)c2)ccc2nc(N)nc(N)c12 ; method: BACTEC ; measure: MIC bound ; strain: H37Rv ; result: >12.5 µg/mL
N#C/C(=C\c1ccc(C(F)(F)F)cc1)n1nnc2ccccc21 ; measure: inhibition ; tested at: 12.5 µg/mL ; result: 82%
c1cc2c(s1)CCOC21CCNCC1 ; measure: EC50 ; strain: H37Rv ; result: >100 µM
CCNC1=C(C)C(=O)c2c(c(COC(N)=O)c3n2CC(NC(C)=O)C3O)C1=O ; method: BACTEC ; measure: inhibition ; tested at: 0.5 µM ; strain: H37Rv ; result: 0%
CC(=O)N[C@@H](Cc1ccccc1)C(=O)Oc1cc(Cl)ccc1C(=O)Nc1ccc(Cl)c(Cl)c1 ; method: broth dilution ; measure: MIC100 ; strain: H37Rv ; setting: 14 d ; result: 0.5 µM
N#C/C(=C\c1ccccc1)n1nc2ccccc2n1 ; measure: EC50 ; result: <12.5 µg/mL
CCOC(=O)C1C=C1C(C)(C)O ; method: resazurin ; measure: MIC bound ; strain: H37Rv ; result: >6.25 µg/mL
COc1ccc(C(=O)Nc2ccc(C(=O)N/N=C/c3ccc(Cl)cc3)cc2)cc1 ; measure: inhibition ; tested at: 6.25 µg/mL ; strain: H37Rv ; result: 3%
COc1ccc(N2CCN(c3nc4c(s3)c3c(O)c5c(O)c(C)c6c(c54)C(=O)[C@@](C)(O/C=C/[C@H](OC)[C@@H](C)[C@@H](OC(C)=O)[C@H](C)[C@H](O)[C@H](C)[C@@H](O)[C@@H](C)/C=C/C=C(/C)C(=O)N3)O6)CC2)cc1 ; measure: MIC ; strain: H37Rv ; result: 0.15 µg/mL
O=C(Oc1ccc(Cl)cc1C(=O)Nc1ccc(C(F)(F)F)cc1)c1cnccn1 ; method: broth dilution ; measure: MIC100 ; strain: H37Rv ; setting: 14 d ; result: 1 µM
CCN(CC)CCCC(C)Nc1cc(C)nc2ccc(N(C)C)cc12 ; method: resazurin ; measure: MIC bound ; strain: H37Rv ; result: >6.25 µg/mL
CCC(C)[C@@H](NC)C(=O)N[C@@H](CC(C)C)C(=O)N1CC[C@@H]2Oc3ccc(OC)c(c3)/C=C\NC(=O)[C@@H]3CCCN3C(=O)[C@H]21 ; measure: MIC ; strain: H37Ra ; result: >200 µg/mL
N#Cc1cc2cc3c4c(c2oc1=O)CCCN4CCC3 ; method: BACTEC ; measure: inhibition ; tested at: 12.5 µg/mL ; strain: H37Rv ; result: 4%
Fc1ccc(N2CN(c3ccc(F)c(Cl)c3)CN(c3ccc(F)c(Cl)c3)C2)cc1Cl ; method: colony count / visual reading ; measure: MIC ; strain: H37Rv ; result: 62.5 µg/mL
CCN1C(=O)CS/C1=N\NC(=O)c1ccc(NC(=O)c2ccc(OC)cc2)cc1 ; measure: MIC ; strain: H37Rv ; result: >6.25 µg/mL
Cc1ccc2c(c1)nc1cc(Nc3ccc(Cl)cc3)c(=NC3CCCCCCC3)cc-1n2-c1ccc(Cl)cc1 ; measure: MIC ; strain: H37Rv (INH-resistant) ; result: 0.2 µg/mL
COc1cc(C(=O)NCC(F)(F)F)c2ncn(Cc3ncnc(OC)c3C)c2c1 ; method: visual reading / absorbance ; measure: MIC80 ; strain: H37Rv ; result: <1.22 µM
C[C@H]1Oc2nc([N+](=O)[O-])cn2C[C@@H]1OCc1ccc(OC(F)(F)F)cc1 ; method: absorbance ; measure: MIC ; strain: H37Rv-5A1 ; result: >100 µM
CCC(C)[C@H](C(=O)N[C@@H](CC(C)C)C(=O)N1CC[C@@H]2Oc3ccc(O)c(c3)/C=C\NC(=O)[C@@H]3CCCN3C(=O)[C@H]21)N(C)C ; measure: MIC ; strain: H37Ra ; result: >200 µg/mL
CCc1nc2ncc(C)cn2c1C(=O)NCc1ccc(N2CCN(S(=O)(=O)C(F)(F)F)C(OC)=N2)c(F)c1 ; method: GFP ; measure: EC50 ; result: 0.00089 µM
NNC(=O)C(=O)NCc1ccco1 ; method: BACTEC ; measure: inhibition ; tested at: 12.5 µg/mL ; strain: H37Rv ; result: 47%
O=C(O)c1c(O)cc(=O)n2c1CCC2 ; measure: MIC ; strain: H37Ra ; result: >256 µg/mL